Reference: PubChem BioAssay AID504761 (Drosophila RNAi Screening Center, 2011)
The screen tested about 22,000 reagents; shown is a random part of those with a known target gene and a result. Of all reagents, 116 (0.52%) are marked active. 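Calls depend on retest data that are not deposited; infection was ranked per plate without normalising between plates; the unit of the infection score is not given.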 Raw values are not corrected between plates. A number with no mark means an inactive call. A plus sign joins genes that one reagent is predicted to hit. The record does not give: the amount of reagent, the time to read-out.

Assay: 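Insect host genes that dengue virus relies on to spread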 (primary screen)
Cells: D.Mel-2 cells from Drosophila
Reagents: long dsRNA against Drosophila genes
Challenge: infection with dengue virus type 2; dose and infection time not stated
Read-out: 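Cells stained for dengue envelope protein and imaged; percent of infected cells per well on duplicate plates, ranked by infection, with stained nuclei counted for cell number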
Scale: infection score: higher = more virus-infected cells; cell count: higher = more cells in the well
Active means: 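Very low infection ranking in both replicate wells (chance probability at most 0.065), then a retest showing infection dropped 1.5-fold or more at p below 0.05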
Calls: active = confirmed: knock-down lowers infection; inactive = not picked or not confirmed

| target gene | dsRNA | infection score, replicate 1 | infection score, replicate 2 | cell count, replicate 1 | cell count, replicate 2 |
| --- | --- | --- | --- | --- | --- |
| CG7907 | DRSC16339 | 0.55 | 3.1 | 6557 | 5556 |
| CG7907 | DRSC26041 | 20.3 | 10.6 | 5242 | 6436 |
| CG12106 | DRSC17805 | 2.5 | 1.32 | 6773 | 6741 |
| fray | DRSC16950 | 16.7 | 6.63 | 5819 | 6306 |
| Cyp308a1 | DRSC20238 | 0.64 | 2.27 | 781 | 5603 |
| Cyp308a1 | DRSC26958 | 4.91 | 4.03 | 6215 | 6330 |
| sty | DRSC22994 | 2.33 | 8.82 | 5021 | 5453 |
| sty | DRSC25779 | 4.73 | 3.08 | 6105 | 6107 |
| CG32833 | DRSC04596 | 11.4 | 24.2 | 6176 | 5285 |
| mre11 | DRSC03570 | 7.9 | 5.74 | 6353 | 6376 |
| mre11 | DRSC22628 | 4.8 | 2.39 | 6417 | 6567 |
| mre11 | DRSC26311 | 4.17 | 0.76 | 6230 | 5936 |
| Vps35 | DRSC04519 | 7.99 | 19.6 | 6208 | 5342 |
| Vps35 | DRSC28790 | 25.9 | 10.9 | 4620 | 3755 |
| mRpS2 | DRSC00550 | 13.7 | 6.15 | 6018 | 6718 |
| ctp | DRSC18758 | 2.56 | 11.8 | 5579 | 6023 |
| ctp | DRSC25165 | 0.59 | 3.84 | 6488 | 6611 |
| robl22E | DRSC00289 | 2.15 | 1.56 | 6095 | 6524 |
| CG11857 | DRSC14411 | 5.31 | 2.96 | 5179 | 5439 |
| Fbxl4 | DRSC19805 | 9.13 | 7.27 | 6409 | 6229 |
| CG8306 | DRSC07141 | 12 | 2.9 | 6487 | 6926 |
| CG8306 | DRSC24656 | 1.44 | 11.3 | 5972 | 4923 |
| CG7084 | DRSC16194 | 1.08 | 2.35 | 6684 | 6763 |
| CG15535 | DRSC15071 | 7.82 | 6 | 6751 | 2000 |
| CG10177 | DRSC14201 | 5.13 | 15.2 | 6261 | 6518 |
| CG10177 | DRSC27888 | 14.5 | 3.7 | 6355 | 6630 |
| CG9254 | DRSC01969 | 4.45 | 5.5 | 6382 | 6278 |
| aurA | DRSC16905 | 5.04 | 9.92 | 6250 | 5675 |
| aurA | DRSC27171 | 7.48 | 20.8 | 6167 | 5695 |
| Cpr50Cb | DRSC06975 | 4.15 | 22.8 | 6354 | 5864 |
| Cpr50Cb | DRSC25171 | 14.9 | 3.31 | 6804 | 936 |
| CG42586 + CG31775 | DRSC01413 | 4.16 | 6.02 | 5547 | 5880 |
| IntS12 | DRSC15818 | 7.29 | 3.94 | 4004 | 4443 |
| Ssl2 | DRSC14395 | 8.73 | 1.08 | 5478 | 6587 |
| Ssl2 | DRSC22796 | 1.76 | 11 | 5641 | 3249 |
| Lamtor5 | DRSC18491 | – | 10.1 | 328 | 3267 |
| CG7990 | DRSC19296 | 4.66 | 7.43 | 5885 | 5950 |
| CG7990 | DRSC23195 | 1.45 | 15.1 | 6001 | 6842 |
| CG7990 | DRSC26580 | 12.9 | 3.14 | 5958 | 5989 |
